Reference: the supplement of paper PMC9931576
Human monoclonal antibodies against the spike receptor-binding domain (heavy:light variable regions). IC50 against pseudoviruses bearing the spike of naturally observed variants; lower = stronger; >10 µg/ml means not reached at the top dose. No active / inactive call. The stated detection limit is 0.0005 µg/ml; values near or below 0.001 µg/ml lie at the floor of the assay.

B1: BD56-218 (protein)
chain 1: EVQLVESGGGLVKPGGSLRLSCAASGFTFSDAWMSWVRQAPGKGLEWVGRVKRKADGGTPDYAAPVKGRFAISRDDSRNRLYLQMNSLKAEDTAVYYCTTTHNWNGEPFDYWGQGTLVTVSS
chain 2: DIEMTQSPSSLSASVGDRVTITCRASQSISRYLNWYQHKVGKAPKVLIYAASSLHSGVPSRFSGSGSGTDFTLTISSLQPEDFATYYCQQSYSSPLTFGGGTKVEFK
B2: BD56-204 (protein)
chain 1: EVQLVQSGAEVKKPGEPLKISCSVSGYKFTSYWIGWVRQMPGKGLEWMGIIYPGDSNTRYSPSFQGQVTISVDKSISTAYLQWSSLKASDTAMYYCARLYYYGSGSYYNPDPDWFDPWGQGTLVTVSS
chain 2: QSVLTQPPSVSGAPGQRVTISCTGSSSNIGAGYDVHWYQQLPGTAPKLLIYVNNNRPSGVPDRVSGSKSGTSASLAITGLQAEDEADYYCQSYDSSLSVWVFGGGTKLTVL
B3: BD56-223 (protein)
chain 1: QVQLVQSGAEVKKPGASVKVSCEASGFSFSSYYIHWVRQAPGQGLEWMGIINPEAGSTTYAQKFQGRVTMTRDTSTSTVYVELSSLRSEDTAVYYCARDEGYIPYTNSPDYWGQGTLVTVSS
chain 2: QSALTQPASVSGSPGQSITISCTGTNSDVGSYNRVSWYLQYPGKAPRLIIYEVTKRPSGVSNRFSGSKSGNTASLTISGLQAEDEADYYCCSYARSSTWVFGGGTRLTVL
B4: DH1151 (protein)
chain 1: QVQLVQSGAEVKKPGASVKVSCKASGYTFTDYYMHWVRQAPGQGLEWMGRINPSSGGTNYVQKFQGRVTMTRDTSISTSYMELSRLRSDDTAVYYCARDLEDFWSGYPPLGYALDVWGQGTTVTVSS
chain 2: NFMLTQPHSVSESPGKTVTISCTRSSGSIASNYVQWYQQRPGSAPTTVIYEDNQRPSGVPDRFSGSIDSSSNSASLTISGLKTEDEADYYCQSYDISNVIFGGGTQLTVL
B5: BD56-222 (protein)
chain 1: QLQLQESGPGLVKPSETLSVTCTVSHASISSSVYYWAWIRQPPGKGLEWIGSMYYGGSTYYNPSLKSRVTISADSSKIQFTLELTSVTAADTAVYYCARHDYTPFGDFFDHWGQGTLVTVSS
chain 2: EILMTQSPATLSVSPGESATLSCRASQSVRSKVAWYQQKPGQAPRLLIYGASTRATDIPARFSGSGSGTEFTLTISSLQSEDFAVYYCQQYDDWPPLTFGGGTKVDIK
B6: BD56-208 (protein)
chain 1: QVQLVQSGAEVKKPGASLKVSCKASGNTFTTYYIHWVRQAPGQGLEWMGIINPSGGSTSYAPKFQGRVTMTSDASTSTIYIDLRSLRSDDTAVYYCARGGVVPAARGEFDYWGQGTLVTVSS
chain 2: DIQMTQSPSTLSASVGDRVTITCRASQSISNWLAWYQQKPGKPPKLLIYKASNLESGVPSRFSGSGSGTEFTLTISSLQPDDFATYYCQEFNSNLYTFGQGTKVEIK

Experiments:
Test in all cases: pseudovirus neutralization IC50; higher = weaker neutralization
[1] = molecular target: SARS-CoV-2 Omicron BA.1 spike pseudovirus
Experimental: (§1)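 Single-round VSV luciferase pseudovirus mixed with antibody dilutions for 1 h and put on Huh-7 cells for about a day; IC50 from the dose curve.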

[2] = molecular target: SARS-CoV-2 Omicron BA.2 spike pseudovirus
Experimental: as §1

[3] = molecular target: SARS-CoV-2 Omicron BA.2.75 spike pseudovirus
Experimental: as §1

[4] = molecular target: SARS-CoV-2 Omicron BA.5 spike pseudovirus
Experimental: as §1

[5] = molecular target: SARS-CoV-2 Omicron BQ.1.1 spike pseudovirus
Experimental: as §1

[6] = molecular target: SARS-CoV-2 Omicron XBB spike pseudovirus
Experimental: as §1

[7] = molecular target: SARS-CoV-2 early D614G spike pseudovirus
Experimental: as §1

Row | Binder | pseudovirus neutralization IC50 [1] [mg/L] | pseudovirus neutralization IC50 [2] [mg/L] | pseudovirus neutralization IC50 [3] [mg/L] | pseudovirus neutralization IC50 [4] [mg/L] | pseudovirus neutralization IC50 [5] [mg/L] | pseudovirus neutralization IC50 [6] [mg/L] | pseudovirus neutralization IC50 [7] [mg/L]
1 | B1 | 8.26 | 7.98 | 7.06 | 5.79 | 6.6 | 9.4 | > 10
2 | B2 | 3.71 | 3.23 | 2.9 | 3.04 | 2.44 | 2.36 | 1.19
3 | B3 | > 10 | > 10 | > 10 | > 10 | > 10 | > 10 | > 10
4 | B4 | 0.543 | 0.448 | 0.579 | > 10 | > 10 | > 10 | 0.106
5 | B5 | 1.67 | 3.58 | 3.87 | 2.43 | 3.13 | 3 | 1.61
6 | B6 | 3.06 | 4.28 | 4.94 | 3.63 | 5.42 | 4.47 | 5.68
